Legend:
[1] = system: PLA2 of Crotalus durissus terrificus (group II); test: Fluorometric anti-PLA2 assay, Crotalus durissus terrificus PLA2 (CB); conditions: read-out: Anti-PLA2 activity IC50 CB Fluo, fluorometric method
[2] = system: PLA2 of Crotalus durissus terrificus (group II); test: UV spectrophotometric anti-PLA2 assay, Crotalus durissus terrificus PLA2 (CB); conditions: read-out: Anti-PLA2 activity IC50 CB Spectro, UV spectrophotometric method

CCCCCCCCCCCCCCN1CCN(C(=O)c2ccc(Cc3noc(=O)[nH]3)cc2)CC1 [Example 8, 1-[4′-(4,5-dihydro-1,2,4(4H)-5-oxo-oxadiazol-3-ylmethyl)benzoyl]-4-tetradecylpiperazine]
IC50 [1]: 3.8 µM | IC50 [2]: 2.6 µM
